Compound potency records, mixed from different reports. Data source: NIAID ChemDB in PubChem.

All rows: whole-cell or culture tests; organism: HIV-1; read-out: EC50

Blank or dashed fields: not listed here. Neighbouring rows are from separate reports. ECn is the concentration giving n% inhibition of infection, replication or growth.

structure,strain or isolate,setting,changes,cell line,method,result
Cc1ncc(-c2ccc(OCCN3CCCCC3)cn2)c(N2CCC(C)(C)CC2)c1[C@H](OC(C)(C)C)C(=O)O,NL4-3,-,-,MT-2,luminescence,0.0715 µM
COc1cnc(-c2cnccn2)c2[nH]cc(C(=O)C(=O)N3CCC(=C(c4ccccc4)c4nccs4)CC3)c12,-,-,-,HeLa,luciferase,<1 µM
COc1ccc(NC(=O)C2=C(C)OCCS2)cc1OCC=C(Cl)Cl,Nevirapine-resistant isolate (RT V106A),-,RT-V106A,CEM,syncytia,10 µg/mL
CCC(=O)c1ccc(F)c([C@@H]2C[C@@H]2NC(=O)Nc2ccc(C#N)cn2)c1O,LAI,-,NNRTI-resistant (RT Y188H),TZM-bl,β-galactosidase / luminescence,0.00116 µM
CC(C)C1=C2[C@H]3CC[C@@H]4[C@@]5(C)CC[C@H](OC(=O)[C@H]6C[C@@H](C(=O)O)C6(C)C)C(C)(C)[C@@H]5CC[C@@]4(C)[C@]3(C)CC[C@@]2(CCNCc2ccc(N3CCS(=O)(=O)CC3)cc2)CC1=O,92HT599,-,-,MT-2,p24 / ELISA,<1 µM
O=C(C(=O)N1CCC(=C(c2ccccc2)c2cc(F)cc(F)c2)CC1)c1c[nH]c2c(Cl)ccnc12,-,-,-,HeLa,luciferase,<1 µM
CCC(C)[C@@H](C(=O)N[C@@H](Cc1ccccc1)[C@H](O)CN(CC(C)C)S(=O)(=O)c1ccc(/C=N/O)cc1)N1CCN(Cc2ccncc2)C1=O,A17 (LPV-resistant),-,PR-L10F V32I M46I I47V Q68E I84V,MT-4,cytopathic effect / MTT,0.008 µM
CC(C)C1=C2[C@H]3CC[C@@H]4[C@@]5(C)CC[C@H](OC(=O)[C@H]6C[C@@H](C(=O)O)C6(C)C)C(C)(C)[C@@H]5CC[C@@]4(C)[C@]3(C)CC[C@@]2(CCNCC(C)(C)NC(=O)c2cccc(Cl)c2)CC1=O,92HT599,-,-,MT-2,p24 / ELISA,<1 µM
COc1cnc(Cl)c2[nH]cc(C(=O)C(=O)N3CCC(=C(F)c4ccccc4)CC3)c12,-,-,-,HeLa,luciferase,<1 µM
Cc1ncc(-c2ccc(OCCN3CCCC3)cn2)c(N2CCC(C)(C)CC2)c1[C@H](OC(C)(C)C)C(=O)O,NL4-3,-,-,MT-2,luminescence,0.204 µM
Cc1ccc(C(=O)NC(C)(C)CNCC[C@@]23CC[C@]4(C)[C@H](CC[C@@H]5[C@@]6(C)CC[C@H](OC(=O)[C@H]7C[C@@H](C(=O)O)C7(C)C)C(C)(C)[C@@H]6CC[C@]54C)C2=C(C(C)C)C(=O)C3)cn1,92HT599,-,-,MT-2,p24 / ELISA,<1 µM
Cc1cc(OCCNc2ccc(-c3cnc(C)c([C@H](OC(C)(C)C)C(=O)O)c3N3CCC(C)(C)CC3)nc2)ccc1F,NL4-3,-,-,MT-2,luminescence,0.0016 µM
COc1ccc(NC(=S)c2ccsc2C)cc1OCC=C(Cl)Cl,TIBO R82150-resistant (RT L100I),-,RT-L100I,CEM,syncytia,0.09 µg/mL
Cc1cc(C#N)cc(C)c1Oc1nc(Nc2ccc(C#N)cc2)nc(N)c1Br,-,-,N348I,TZM-bl,-,0.009 µM
COc1cnc(-c2ccc(C#N)cc2)c2[nH]cc(C(=O)C(=O)N3CCC(=C(C#N)c4ccccc4)CC3)c12,-,-,-,HeLa,luciferase,<1 µM
COCCCCOc1ccc(-c2cnc(C)c([C@H](OC(C)(C)C)C(=O)O)c2N2CCC(C)(C)CC2)nc1,NL4-3,-,-,MT-2,luminescence,0.0027 µM
Cc1ccc(CN2CCN([C@H](C(=O)N[C@@H](Cc3ccccc3)[C@H](O)CN(CC(C)C)S(=O)(=O)c3ccc(/C=N/O)cc3)C(C)(C)C)C2=O)cn1,A17 (LPV-resistant),-,PR-L10F V32I M46I I47V Q68E I84V,MT-4,cytopathic effect / MTT,0.002 µM
COc1cnc(-c2ccc(S(C)(=O)=O)cc2)c2[nH]cc(C(=O)C(=O)N3CCC(=C(C#N)c4ccccc4)CC3)c12,-,-,-,HeLa,luciferase,<1 µM
Cc1ccnc2c1NC(=O)c1cccnc1N2C1CC1,94ug114.1.6,-,-,HEK293T,luciferase,153.8 nM
CC(C)C1=C2[C@H]3CC[C@@H]4[C@@]5(C)CC[C@H](OC(=O)[C@H]6C[C@@H](C(=O)O)C6(C)C)C(C)(C)[C@@H]5CC[C@@]4(C)[C@]3(C)CC[C@@]2(CCNCc2ccc(O[C@@H]3CCOC3)cc2)CC1=O,92HT599,-,-,MT-2,p24 / ELISA,<1 µM
COc1cnc(-n2ccc(C)n2)c2[nH]cc(C(=O)C(=O)N3CCC(=C(c4ccccc4)c4csc(C)n4)CC3)c12,-,-,-,HeLa,luciferase,<1 µM
CC(C)C1=C2[C@H]3CC[C@@H]4[C@@]5(C)CC[C@H](OC(=O)[C@H]6C[C@@H](C(=O)O)C6(C)C)C(C)(C)[C@@H]5CC[C@@]4(C)[C@]3(C)CC[C@@]2(CCNCc2ccc(N)nc2)CC1=O,92HT599,-,-,MT-2,p24 / ELISA,<1 µM
COc1ncc(OC)c2c(C(=O)C(=O)N3CCC(=C(C#N)c4coc5ccccc45)CC3)c[nH]c12,-,-,-,HeLa,luciferase,<1 µM
CCC(C)[C@@H](C(=O)N[C@@H](Cc1ccccc1)[C@H](O)CN(CC(C)C)S(=O)(=O)c1ccc(/C=N/O)cc1)N1CC(=O)N(Cc2ccncc2)C1=O,-,-,-,MT-4,cytopathic effect / MTT,0.005 µM
CC(C)[C@H](NC(=O)OCc1ccccn1)C(=O)N[C@@H](Cc1ccccc1)[C@@H](O)C[C@H](Cc1ccccc1)NC(=O)OCc1cccnc1,NL4-3,-,PR-L10R,MT-4,p24,<0.8 µM
COc1ccc(NC(=S)C2=C(C)OCCS2)cc1OCC=C(Cl)Cl,TIBO R82913-resistant (RT K103N),-,RT-K103N,CEM,syncytia,2.5 µg/mL
CCC(C)[C@@H](C(=O)N[C@@H](Cc1ccccc1)[C@H](O)CN(CC(C)C)S(=O)(=O)c1ccc(/C=N/O)cc1)N1CCN(Cc2cnccc2C)C1=O,A17 (LPV-resistant),-,PR-L10F V32I M46I I47V Q68E I84V,MT-4,cytopathic effect / MTT,0.012 µM
COCCOc1ccc(-c2cnc(C)c([C@H](OC(C)(C)C)C(=O)O)c2N2CCC(C)(C)CC2)nc1,NL4-3,-,-,MT-2,luminescence,0.0114 µM
CC(C)C1=C2[C@H]3CC[C@@H]4[C@@]5(C)CC[C@H](OC(=O)[C@H]6C[C@@H](C(=O)O)C6(C)C)C(C)(C)[C@@H]5CC[C@@]4(C)[C@]3(C)CC[C@@]2(CCNCC(C)(C)N)CC1=O,92HT599,-,-,MT-2,p24 / ELISA,<1 µM
Cc1sccc1C(=S)Nc1ccc(Cl)c(OCC=C(Cl)Cl)c1,TIBO R82150-resistant (RT L100I),-,RT-L100I,CEM,syncytia,0.065 µg/mL
Cc1ncc(-c2ccc(OCCCOc3ccccc3)cn2)c(N2CCC(C)(C)CC2)c1[C@H](OC(C)(C)C)C(=O)O,NL4-3,-,-,MT-2,luminescence,0.0012 µM
Cc1occc1C(=S)Nc1ccc(Cl)c(OCC=C(Cl)Cl)c1,TSAO-m3T-resistant (RT E138K),-,RT-E138K,CEM,syncytia,0.04 µg/mL
CC(C)CN(C[C@@H](O)[C@H](Cc1ccccc1)NC(=O)[C@H](C(C)C)N1CC(=O)N(Cc2ccccc2)C1=O)S(=O)(=O)c1ccc(/C=N/O)cc1,-,50% human serum,-,MT-4,cytopathic effect / MTT,0.025 µM